One compound from paper PMC12794095, “Quinazolinones as Bioisosteres of Naphthoquinones: A Path to Potent HsDHODH Inhibitors with Optimized Properties” (ACS Medicinal Chemistry Letters, 2025) can be followed below.

The data set deals with SARS-CoV-2. In words: SARS-CoV-2 replication inhibition in Calu-3 cells, viral titers by plaque assay. The data set is classed as cell-based.

The index is printed as in the source, without its formula.

`O=c1[nH]c(Nc2cccc(-c3ccccc3)c2)nc2ccccc12` [Compound 10e]: the “greater potency in suppressing viral replication compared to Brequinar” value (SARS-CoV-2, Calu-3, identical assay conditions) was “approximately 5 fold”. Also, where the note is “SARS-CoV-2 EC50 versus lapachol EC50 = 1.5 ± 0.1 μM”, the “enhancement in antiviral activity compared to lapachol” value turned out to be 10 fold. The SI (selectivity index, Calu-3 cells) worked out at 234.
